PubChem BioAssay AID1259414 | Drosophila RNAi Screening Center – 2018
The screen tested about 24,000 reagents; below is an unselected part of those with a known target gene and a result. Over the whole deposit, about 1,210 (5%) got an active call. 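Inactive calls also include excluded dsRNAs with several or no targets, genes unexpressed in JW18, and well A1, regardless of score.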 Unmarked entries are inactive. A plus sign joins genes that one reagent is predicted to hit.

- Purpose: 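Fly genes that alter Wolbachia amount inside host cells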 (primary screen)
- System: Drosophila JW18 cells infected with Wolbachia
- Knock-down reagent: long dsRNA against Drosophila genes, 0.25 µg dsRNA per well of a 384-well plate
- Time to read-out: 5 days
- Conditions: cells persistently infected with Wolbachia before knock-down; no added drug
- Read-out: 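Automated imaging of bacterial rRNA staining divided by host cell count, reported as plate-normalised robust z-score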
- Reading the numbers: Wolbachia per cell robust z: higher = more Wolbachia per host cell than the plate typical
- Hit rule: 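Active if absolute robust z reaches 1.5 in two or more of three replicates, leaving out multi- or no-target dsRNAs, genes unexpressed in JW18 and A1 wells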

CG30108 + CG30109 [DRSC05674] gave Wolbachia per cell robust z, rep 1 = -1.64; Wolbachia per cell robust z, rep 2 = -2.81; Wolbachia per cell robust z, rep 3 = -0.56. Silencing of CG6769 [DRSC20006] resulted in: Wolbachia per cell robust z, rep 1 = -0.148; Wolbachia per cell robust z, rep 2 = 0.0961; Wolbachia per cell robust z, rep 3 = 0.0872. Silencing of Tmf [DRSC18368] gave: Wolbachia per cell robust z, rep 1 = 1.21 (active); Wolbachia per cell robust z, rep 2 = -1.97; Wolbachia per cell robust z, rep 3 = -3.6. After knock-down of Tmf [DRSC30004], the record shows Wolbachia per cell robust z, rep 1 = 0.146; Wolbachia per cell robust z, rep 2 = 0.437; Wolbachia per cell robust z, rep 3 = 0.819. Against mRpL46 [DRSC08391] the deposit lists Wolbachia per cell robust z, rep 1 = -4.27; Wolbachia per cell robust z, rep 2 = 0.618; Wolbachia per cell robust z, rep 3 = 0.557. Against Pld [DRSC04854], the entry reads Wolbachia per cell robust z, rep 1 = 0.181; Wolbachia per cell robust z, rep 2 = -0.797; Wolbachia per cell robust z, rep 3 = 0.805.

With knock-down of Pld [DRSC24641] the results were Wolbachia per cell robust z, rep 1 = 1.34; Wolbachia per cell robust z, rep 2 = 0.38; Wolbachia per cell robust z, rep 3 = 0.396. After knock-down of CR30374 [DRSC05080] the results were Wolbachia per cell robust z, rep 1 = -3.35; Wolbachia per cell robust z, rep 2 = -9.31; Wolbachia per cell robust z, rep 3 = -2.77. Depletion of CG7208 [DRSC16212] gave: Wolbachia per cell robust z, rep 1 = 0.33; Wolbachia per cell robust z, rep 2 = -0.0671; Wolbachia per cell robust z, rep 3 = -2.32. Against CG7208 [DRSC26213], the values are Wolbachia per cell robust z, rep 1 = 1.12; Wolbachia per cell robust z, rep 2 = -0.442; Wolbachia per cell robust z, rep 3 = -0.459. Against mnb [DRSC20353] the deposit lists Wolbachia per cell robust z, rep 1 = -0.671; Wolbachia per cell robust z, rep 2 = 0.161; Wolbachia per cell robust z, rep 3 = 0.826. Silencing of mnb [DRSC23347] resulted in: Wolbachia per cell robust z, rep 1 = 0.129; Wolbachia per cell robust z, rep 2 = -0.845; Wolbachia per cell robust z, rep 3 = -3.77.

mnb [DRSC24961] showed Wolbachia per cell robust z, rep 1 = -0.433; Wolbachia per cell robust z, rep 2 = 1.03; Wolbachia per cell robust z, rep 3 = -1.26. With knock-down of mnb [DRSC28430] the results were Wolbachia per cell robust z, rep 1 = -0.799; Wolbachia per cell robust z, rep 2 = -0.846; Wolbachia per cell robust z, rep 3 = -1.18.

Copied from above (2 entries):
mnb [DRSC23347] — Wolbachia per cell robust z, rep 1: 0.129; Wolbachia per cell robust z, rep 2: -0.845; Wolbachia per cell robust z, rep 3: -3.77
mnb [DRSC24961] — Wolbachia per cell robust z, rep 1: -0.433; Wolbachia per cell robust z, rep 2: 1.03; Wolbachia per cell robust z, rep 3: -1.26
